Assay [1] concerns the target Staphylococcus pyruvate kinase (PK) (Staphylococcus aureus, UniProt Q6GG09). Description: In vitro enzyme assay, pyruvate kinase inhibition. The settings on record: read-out: IC50 (µM) PK; IC50 ± SD.
The target of assay [2] is Staphylococcus DNA gyrase-B (Staphylococcus aureus, UniProt P0A0K8). Description: In vitro enzyme assay, DNA gyrase-B ATPase (Inspiralis kit). The assay is classed as biochemical. The settings on record: read-out: IC50 (µM) Gyr-B; IC50 ± SD. The protocol: DNA gyrase (type II topoisomerase) and topoisomerase IV (ParE) add negative supercoils into DNA using ATP hydrolysis as a source of energy. They are considered crucial bacterial enzymes that are absent in eukaryotes. DNA-gyrase-B- and ParE-inhibitory activities were evaluated using the Inspiralis assay kit (Inspiralis®, London, UK) on streptavidin-coated 96 well microtiter plates (Thermo Scientific, Hamburg, Germany), according to the manufacturer’s protocol. The assay detects the ability of the isolated compounds to prevent the ATPase activity of both gyrase-B and ParE subunits. On the other hand, pyruvate kinase (PK) has been discovered to be an important hub protein in the interactome of MRSA [52]. The PK-inhibitory activity of the isolated compounds was assessed according to a previously reported method.

Protein sequences, listed by entry. Tags and fused reporters are not part of them.
UniProt Q6GG09, whole entry: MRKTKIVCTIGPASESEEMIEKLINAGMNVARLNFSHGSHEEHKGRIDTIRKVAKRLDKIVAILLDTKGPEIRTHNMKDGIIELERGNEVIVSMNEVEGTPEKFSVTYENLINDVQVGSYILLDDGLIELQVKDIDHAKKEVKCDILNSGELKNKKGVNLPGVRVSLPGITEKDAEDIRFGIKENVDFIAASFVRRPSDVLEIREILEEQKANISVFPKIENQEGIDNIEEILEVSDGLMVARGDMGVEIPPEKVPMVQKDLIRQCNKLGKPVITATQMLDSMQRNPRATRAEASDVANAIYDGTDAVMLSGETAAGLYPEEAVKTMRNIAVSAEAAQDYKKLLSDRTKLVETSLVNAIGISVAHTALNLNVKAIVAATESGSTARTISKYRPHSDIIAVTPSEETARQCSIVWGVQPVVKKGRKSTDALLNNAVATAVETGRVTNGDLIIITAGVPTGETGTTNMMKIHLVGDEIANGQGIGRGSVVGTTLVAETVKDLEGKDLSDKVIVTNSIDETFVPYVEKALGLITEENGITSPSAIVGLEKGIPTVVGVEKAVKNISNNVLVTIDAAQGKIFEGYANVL
UniProt P0A0K8, whole entry: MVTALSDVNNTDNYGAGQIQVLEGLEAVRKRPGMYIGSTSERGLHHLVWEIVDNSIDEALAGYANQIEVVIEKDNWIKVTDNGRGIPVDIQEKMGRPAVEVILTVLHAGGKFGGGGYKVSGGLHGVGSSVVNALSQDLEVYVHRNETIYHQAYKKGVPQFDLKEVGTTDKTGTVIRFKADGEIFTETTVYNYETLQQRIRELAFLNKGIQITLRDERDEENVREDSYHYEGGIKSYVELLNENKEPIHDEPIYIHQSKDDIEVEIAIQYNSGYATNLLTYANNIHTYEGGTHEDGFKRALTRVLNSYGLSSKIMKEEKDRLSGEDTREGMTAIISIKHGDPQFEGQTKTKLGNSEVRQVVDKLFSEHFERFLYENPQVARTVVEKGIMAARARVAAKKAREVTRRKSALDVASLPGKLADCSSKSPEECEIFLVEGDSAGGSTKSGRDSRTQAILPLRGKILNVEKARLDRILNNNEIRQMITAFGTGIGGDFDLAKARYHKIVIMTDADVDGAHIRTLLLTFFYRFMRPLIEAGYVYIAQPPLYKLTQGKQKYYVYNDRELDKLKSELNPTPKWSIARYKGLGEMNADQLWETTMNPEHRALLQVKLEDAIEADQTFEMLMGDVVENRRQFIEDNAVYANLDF
UniProt P20831, whole entry partner: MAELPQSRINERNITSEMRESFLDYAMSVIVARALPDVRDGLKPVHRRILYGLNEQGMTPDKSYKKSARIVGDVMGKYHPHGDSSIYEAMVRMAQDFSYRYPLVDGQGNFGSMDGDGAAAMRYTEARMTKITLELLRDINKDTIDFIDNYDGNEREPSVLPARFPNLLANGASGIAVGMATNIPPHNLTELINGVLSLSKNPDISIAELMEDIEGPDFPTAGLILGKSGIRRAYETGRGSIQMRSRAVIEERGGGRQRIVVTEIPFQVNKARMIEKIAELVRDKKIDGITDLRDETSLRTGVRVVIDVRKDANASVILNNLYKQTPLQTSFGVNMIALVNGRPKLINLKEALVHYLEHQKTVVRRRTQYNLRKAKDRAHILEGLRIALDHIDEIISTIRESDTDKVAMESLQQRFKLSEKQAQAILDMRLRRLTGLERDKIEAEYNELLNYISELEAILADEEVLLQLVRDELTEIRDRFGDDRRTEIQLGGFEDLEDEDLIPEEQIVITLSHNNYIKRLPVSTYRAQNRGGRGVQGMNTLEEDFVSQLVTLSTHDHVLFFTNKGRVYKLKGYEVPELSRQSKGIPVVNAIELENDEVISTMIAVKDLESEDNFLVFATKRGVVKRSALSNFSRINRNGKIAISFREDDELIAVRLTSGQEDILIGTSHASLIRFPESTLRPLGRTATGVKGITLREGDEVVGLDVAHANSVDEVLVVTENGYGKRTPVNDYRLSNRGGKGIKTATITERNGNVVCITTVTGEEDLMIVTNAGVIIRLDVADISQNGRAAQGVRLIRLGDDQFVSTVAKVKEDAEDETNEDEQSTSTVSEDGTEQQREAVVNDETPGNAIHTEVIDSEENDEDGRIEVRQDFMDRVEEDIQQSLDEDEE

The structures given here were assigned with low confidence; some may be wrong.

Consider `COC(=O)NCc1cc(-c2sc(-c3ccccc3)nc2N2CCC(O)CC2)[nH]n1`, for which the IC50 in assay [1] amounted to 0.24 µM; in assay [2] it was 0.091 µM.

Values taken from article PMC7281614, “Induction of Antibacterial Metabolites by Co-Cultivation of Two Red-Sea-Sponge-Associated Actinomycetes Micromonospora sp. UR56 and Actinokinespora sp. EG49” (Marine Drugs, 2020).
